# Source: PubChem BioAssay AID720579 (National Center for Advancing Translational Sciences (NCATS), 2013)
# Shown are results outside the selection of hits, which stands elsewhere. Results filed as inconclusive are left out. Activity calls are given as the source filed them. Calls follow the shape of the full dose curve; tested in A549 cells.
# Experiment: qHTS for Stage-Specific Inhibitors of Vaccinia Orthopoxvirus: mCherry Reporter Primary qHTS; also: nearly all actives have a fitted effect of over 35% in size
# Details: Vaccinia virus mCherry reporter infection, fluorescence; at 36.5 µM (top of the series)
row,Structure (SMILES),outcome
1,CCCCc1oc2ccccc2c1C(=O)c1cc(I)c(OCCN(CC)CC)c(I)c1,inactive
